# Source: US7279172B2, “Treatment of autoimmune conditions with copolymer 1 and related copolymers” (priority 1998, dated 2007)
# System: HLA-DR1, HLA-DR2 and HLA-DR4
# Type: binding, human
# Conditions: pH 5
row,Substance,"inhibition of the polypeptide's binding to HLA-DR by superantigens SEA, SEB, TSST-1 (in words)"
1,"poly[L-Tyr^0.102, L-Ala^0.542, L-Lys^0.353] [SD-1691-TAL]",only inhibited by the superantigens at high molar ratios
2,"poly[L-Glu^0.153, L-Ala^0.479, L-Lys^0.365] [SD-1689-GAL]",inhibited more significantly by the superantigens
3,"poly[L-Tyr^0.136, L-Glu^0.21, L-Ala^0.648] [SD-1690-TGA]",inhibited more significantly by the superantigens
